What all share (assay type): cell-based, Dengue virus
The subject of one data set is DENV-3 strain H87. In words: Tetravalent RT-qPCR assay Protocol A, serotype 3. The following applies: RT-qPCR serotype 3 H87. The method, then:
(§1) The antiviral activity of the compounds of the invention was tested against DENV-1 strain TC974#666 (NCPV), DENV-2 strain 16681, DENV-3 strain H87 (NCPV) and DENV-4 strain H241 (NCPV) in a RT-qPCR assay. Therefore, Vero cells were infected with either DENV-1, or -2, or -3, or -4 in the presence or absence of test compounds. At day 3 post-infection, the cells were lysed and cell lysates were used to prepare cDNA of both a viral target (the 3′UTR of DENV; Table 2) and a cellular reference gene (β-actin, Table 2). Subsequently, a duplex real time PCR was performed on a Lightcycler480 instrument. The generated Cp value is inversely proportional to the amount of RNA expression of these targets. Inhibition of DENV replication by a test compound results in a shift of Cp's for the 3′UTR gene. On the other hand, if a test compound is toxic to the cells, a similar effect on β-actin expression will be observed. The comparative ΔΔCp method is used to calculate EC50, which is based on the relative gene expression of the target gene (3′UTR) normalized with the cellular housekeeping gene (β-actin). In addition, CC50 values are determined based on the Cp values acquired for the housekeeping gene β-actin.
(§2) The culture medium consisted of minimal essential medium supplemented with 2% of heat-inactivated fetal calf serum, 0.04% gentamycin (50 mg/mL) and 2 mM of L-glutamine. Vero cells, obtained from ECACC, were suspended in culture medium and 75 μL/well was added in 96-well plates (10000 cells/well), which already contain the antiviral compounds. […] In addition, each plate contains wells which are assigned as virus controls (containing cells and virus in the absence of compound) and cell controls (containing cells in the absence of virus and compound). Once the cells were added in the plates, the plates were incubated in a fully humidified incubator (37° C., 5% CO2) until the next day. Dengue viruses serotype-1, 2, 3 and 4 were diluted in order to obtain a Cp of ˜22-24 in the assay. Therefore, 25 μL of virus suspension was added to all the wells containing test compound and to the wells assigned as virus control. In parallel, 25 μL of culture medium was added to the cell controls. Next, the plates were incubated for 3 days in a fully humidified incubator (37° C., 5% CO2). After 3 days, the supernatant was removed from the wells and the cells were washed twice with ice-cold PBS (˜100 μL). The cell pellets within the 96-well plates were stored at −80° C. for at least 1 day. Next, RNA was extracted using the Cells-to-CT™ lysis kit, according to the manufacturer's guideline (Life Technologies). The cell lysates can be stored at −80° C. or immediately used in the reverse transcription step.
(§3) In preparation of the reverse transcription step, mix A (table 3A) was prepared and 7.57 μL/well was dispensed in a 96-well plate. After addition of 5 μL of the cell lysates, a five minute denaturation step at 75° C. was performed (table 3B). Afterwards, 7.43 μL of mix B was added (table 3C) and the reverse transcription step was initiated (table 3D) to generate cDNA.
(§4) Finally, a RT-qPCR mix was prepared, mix C (table 4A), and 22.02 μL/well was dispensed in 96-well LightCycler qPCR plates to which 3 μL of cDNA was added and the qPCR was performed according to the conditions in table 4B on a LightCycler 480.
(§5) Using the LightCycler software and an in-house LIMS system, dose response curves for each compound were calculated and the half maximal effective concentration (EC50) and the half maximal cytotoxic concentration (CC50) were determined (Tables 5-8).
For orientation: Quantitative PCR measures a nucleic acid by following its amplification.

Another data set concerns DENV-1 strain TC974#666. In words: Tetravalent RT-qPCR assay Protocol A, serotype 1. The following applies: RT-qPCR serotype 1 TC974#666. The protocol: as §1, §2, §3, §4, §5
The subject of another data set is DENV-2 strain 16681. In words: Tetravalent RT-qPCR assay Protocol A, serotype 2. Conditions: RT-qPCR serotype 2 16681. The protocol:
as §1, §2, §3, §4, §5

The next data set deals with DENV-4 strain H241. Briefly: Tetravalent RT-qPCR assay Protocol A, serotype 4. Conditions: RT-qPCR serotype 4 H241. The protocol: as §1, §2, §3, §4, §5
Another data set deals with DENV-2 16681 strain. In words: DENV-2 antiviral assay (eGFP fluorescence, Vero cells). The following applies: SI=CC50/EC50, DENV-2 antiviral assay. The method, then:
The antiviral activity of all the compounds of the invention was tested against the DENV-2 16681 strain which was labeled with enhanced green fluorescent protein (eGPF). The culture medium consists of minimal essential medium supplemented with 2% of heat-inactivated fetal calf serum, 0.04% gentamycin (50 mg/mL) and 2 mM of L-glutamine. Vero cells, obtained from ECACC, were suspended in culture medium and 25 μL was added to 384-well plates (2500 cells/well), which already contain the antiviral compounds. Typically, these plates contain a 5-fold serial dilution of 9 dilution steps of the test compound at 200 times the final concentration in 100% DMSO (200 nL). […] Finally, each plate contains wells which are assigned as virus controls (containing cells and virus in the absence of compound), cell controls (containing cells in the absence of virus and compound) and medium controls (containing medium in the absence of cells, virus and compounds). To the wells assigned as medium control, 25 μL of culture medium was added instead of Vero cells. Once the cells were added to the plates, the plates were incubated for 30 minutes at room temperature to allow the cells to distribute evenly within the wells. Next, the plates were incubated in a fully humidified incubator (37° C., 5% CO2) until the next day. Then, DENV-2 strain 16681, labeled with eGFP, was added at a multiplicity of infection (MOI) of 0.5. Therefore, 15 μL of virus suspension was added to all the wells containing test compound and to the wells assigned as virus control. In parallel, 15 μL of culture medium was added to the medium and cell controls. Next, the plates were incubated for 3 days in a fully humidified incubator (37° C., 5% CO2). At the day of the read out, the eGFP fluorescence was measured using an automated fluorescence microscope at 488 nm (blue laser). Using an in-house LIMS system, inhibition dose response curves for each compound were calculated and the half maximal effective concentration (EC50) was determined. Therefore, the percent inhibition (I) for every test concentration is calculated using the following formula: I=100*(ST-SCC)/(SVC-SCC), ST, SCC and SVC are the amount of eGFP signal in the test compound, cell control and virus control wells, respectively. The EC50 represents the concentration of a compound at which the virus replication is inhibited with 50%, as measured by a 50% reduction of the eGFP fluorescent intensity compared to the virus control. The EC50 is calculated using linear interpolation (Table 1).

Consider `COc1cc(NC(C(=O)N2CCc3c(C)cc(OC(F)(F)F)cc32)c2ccc(Cl)cc2OCCCC(=O)O)cc(-n2cncn2)c1` (single isomer, unassigned) [Compound 16B], for which the SI in the data set on DENV-3 strain H87 is greater than 1780; in the data set on DENV-1 strain TC974#666, greater than 23100; with DENV-2 strain 16681 it was greater than 44200; in the data set with DENV-4 strain H241, 181; in the data set with DENV-2 16681 strain, greater than 174673.
The like results for `COc1cc(NC(C(=O)N2CCc3cc(OC)c(C(F)(F)F)cc32)c2ccc(Cl)cc2OCCO)cc(-n2cncn2)c1` (single isomer, unassigned) [Compound 5B] were, in that order, greater than 116, greater than 981, 6730, greater than 33 and 14400.
On to `COc1cc(NC(C(=O)N2CCc3ccc(C(F)(F)F)cc32)c2ccc(F)cc2OCCO)cc(-n2cncn2)c1` (single isomer, unassigned) [Compound 1B], for which the SI was greater than 123 in the data set on DENV-3 strain H87; greater than 2290 in the data set with DENV-1 strain TC974#666; greater than 1480 with DENV-2 strain 16681; 10 with DENV-4 strain H241; 3530 in the data set with DENV-2 16681 strain.
The like results for `COc1cc(NC(C(=O)N2CCc3cc(F)c(C(F)(F)F)cc32)c2ccc(Cl)cc2OCCO)cc(-n2cncn2)c1` (single isomer, unassigned) [Compound 7B] were, in that order, greater than 259, greater than 6750, greater than 9150, 10 and 4180.
The like results for `COc1cc(NC(C(=O)N2CCc3cc(OC)c(OC(F)(F)F)cc32)c2ccc(Cl)cc2OCCO)cc(-n2cncn2)c1` (single isomer, unassigned) [Compound 8A] were, in that order, greater than 203, greater than 1570, 3620, 21 and 7360.
The like results for `COc1cc(NC(C(=O)N2CCc3ccc(OC(F)(F)F)cc32)c2ccc(Cl)cc2OCCO)cc(-n2cncn2)c1` (single isomer, unassigned) [Compound 6A] were, in that order, greater than 227, greater than 10900, 18700, greater than 53 and 14900.
As to `COc1cc(NC(C(=O)N2CCc3cc(OC)c(C(F)(F)F)cc32)c2ccc(F)cc2OCCO)cc(-n2cncn2)c1` (single isomer, unassigned) [Compound 2B], the SI is greater than 118 with DENV-3 strain H87; greater than 744 with DENV-1 strain TC974#666; 2070 with DENV-2 strain 16681; greater than 11 with DENV-4 strain H241; 4180 in the data set with DENV-2 16681 strain.
The like results for `COc1cc(NC(C(=O)N2CCc3cc(F)c(OC(F)(F)F)cc32)c2ccc(Cl)cc2OCCO)cc(-n2cncn2)c1` (single isomer, unassigned) [Compound 9B] were, in that order, greater than 103, greater than 2860, greater than 4250, 27 and 13800.
Taken in the same sequence, the figures for `COc1cc(NC(C(=O)N2CCc3ccc(C(F)(F)F)cc32)c2ccc(Cl)cc2OCCCC(=O)O)cc(-n2cncn2)c1` (single isomer, unassigned) [Compound 11B] were greater than 991, greater than 41800, 64900, 184 and 45200.
As to `COc1cc(NC(C(=O)N2CCc3ccc(OC(F)(F)F)cc32)c2ccc(Cl)cc2OCCC(C)(C)C(=O)O)cc(-n2cncn2)c1` (single isomer, unassigned) [Compound 14B], the SI with DENV-3 strain H87 was greater than 644; in the data set with DENV-1 strain TC974#666 it was 8720; in the data set on DENV-2 strain 16681 it was greater than 9320; with DENV-4 strain H241, 61; in the data set with DENV-2 16681 strain it was 35500.
The like results for `COc1cc(NC(C(=O)N2CCc3ccc(C(F)(F)F)cc32)c2ccc(Cl)cc2OCCO)cc(-n2cncn2)c1` (single isomer, unassigned) [Compound 4B] were, in that order, 228, greater than 8060, 6270, 23 and 16100.
The like results for `COc1cc(NC(C(=O)N2CCc3cc(F)c(OC(F)(F)F)cc32)c2ccc(Cl)cc2OCCCC(=O)O)cc(-n2cncn2)c1` (single isomer, unassigned) [Compound 15B] were, in that order, 3130, 46500, greater than 22600, 174 and 94800.
`COc1cc(NC(C(=O)N2CCc3cc(F)c(OC(F)(F)F)cc32)c2ccc(Cl)cc2OCCO)cc(-n2cncn2)c1` (racemic) [Compound 9, 2-(4-chloro-2-(2-hydroxyethoxy)phenyl)-1-(5-fluoro-6-(trifluoromethoxy)indolin-1-yl)-2-((3-methoxy-5-(1H-1,2,4-triazol-1-yl)phenyl)amino)ethanone] registered an SI in the data set on DENV-2 16681 strain of 2850.
The same measure, in the same setting: next, `COc1cc(NC(C(=O)N2CCc3ccc(OC(F)(F)F)cc32)c2ccc(F)cc2OCCO)cc(-n2cncn2)c1` (single isomer, unassigned) [Compound 3A]: 22; `COc1cc(NC(C(=O)N2CCc3ccc(OC(F)(F)F)cc32)c2ccc(F)cc2OCCO)cc(-n2cncn2)c1` (racemic) [Compound 3, 2-(4-fluoro-2-(2-hydroxyethoxy)phenyl)-2-((3-methoxy-5-(1H-1,2,4-triazol-1-yl)phenyl)amino)-1-(6-(trifluoromethoxy)indolin-1-yl)ethanone]: 5210.

The values are drawn from patent publication US11083707B2, “Substituted indoline derivatives as dengue viral replication inhibitors” (JANSSEN PHARMACEUTICALS, INC., priority 2017, dated 2021).
